Test results published in patent publication US20120135013A1, “CD45 and Methods and Compounds Related Thereto” (priority 2007, published 2012).

Test system: J774A.1 cells
Assay type: cell-based, mouse

| Compound | viability of J774A.1 cells following infection with Sterne B. anthracis spores | viability against B. anthracis infection |
| --- | --- | --- |
| O=C1C(SCCO)=C(SCCO)C(=O)c2ccccc21 [NSC 95397] | increased the viability |  |
| NC(=O)CCCSC1=CC(=O)c2ccccc2C1=O [NSC 270012] | increased the viability |  |
| CD45 PMO (CCACAAACCCATGGTCATATC; all phosphorodiamidate morpholino (PMO)) |  | increased viability |
